{"source": "patent US10358453B2", "about": "“Antiviral compounds” (priority 2015, dated 2019)", "key": {"[1]": {"system": "RSV subgenomic replicon 395 HeLa and APC126", "test": "RSV subgenomic replicon assay (Renilla luciferase)", "assay_type": "cell-based", "details": "RSV replicon cells (395 HeLa 7 days or APC126 3 days); Table G = less than 1 μM, Table H = equal to or higher than 1 μM and less than 50 μM", "description": "The RSV subgenomic replicon 395 HeLa and APC126 were licensed from Apath (Brooklyn, N.Y.) and were originally developed by Dr. Mark Meeples of Center for Vaccines & Immunity, the Research Institute at Nationwide Children's Hospital in Columbus, Ohio. To generate subgenomic RSV replicon, three glycoprotein genes, those for SH, G, and F, from a full-length recombinant GFP-expressing (rg) RSV antigenomic cDNA were deleted. In their place, a blasticidin S deaminase (bsd) gene was inserted. Through multiple steps, the RSV replicon was established in HeLa cells (395 Hela) or BHK cells (APC126). Both 395 HeLa and APC126 cells were cultured in Dulbecco's Modified Eagle Medium (DMEM) containing 4500 mg/L D-glucose, L-glutamine, and 110 mg/L sodium pyruvate (Invitrogen, Cat. #11995-040). The medium was further supplemented with 10% (v/v) fetal bovine serum (FBS) (Mediatech, Cat. #35-010-CV), 1% (v/v) penicillin/streptomycin (Mediatech, Cat. #30-002-CI), and 10 μg/mL of Blasticidin (BSD) (Invivogen, Cat. code ant-bl-1). Cells were maintained at 37° C. in a humidified 5% CO2 atmosphere. […]\nThe Renilla Luciferase Assay System (Promega, Cat. #E2820) was used to measure anti-RSV replicon activity. […] Luminescence was recorded using a Perkin Elmer multilabel counter Victor3V. […]"}, "recombinant RSV complex": {"target": "recombinant RSV complex (Human respiratory syncytial virus A, UniProt P28887)", "test": "RSV polymerase inhibition assay", "details": "10 nM recombinant RSV complex, 2 h at 30° C.; Table E = <1 μM, Table F = <50 μM", "protocol": "Standard RSV polymerase assays were conducted in the presence of 10 nM recombinant RSV complex in a reaction buffer containing Tris-HCl pH7.5, 6 mM MgCl2, and other additives and substrates including RNA oligonucleotides and radionucleotides. Standard reactions were incubated in 96-well plate format for 2 h at 30° C., in the presence of increasing concentration of inhibitor. The reaction was stopped with 90 μL of 0.1M EDTA, and the reaction product was transferred to a “reading” 96-well plate. After washing of the plate, radiolabeled RNA products were detected according to standard procedures with a Trilux Topcount scintillation counter. The compound concentration at which the enzyme-catalyzed rate was reduced by 50% (IC50) was calculated by fitting the data to a non-linear regression (sigmoidal)."}}, "note": "pEC50, pIC50: −log10 of the molar value.", "data": [{"compound": "COc1cc(C(=O)NC[C@@](O)(c2cc3c(c(-c4ccc(F)cc4)n2)NC[C@@]3(C)N)C(F)(F)F)ccc1O[C@H]1CCNC1=O", "values": [{"measurement": "pEC50", "setting": "[1]", "value": "> 6.00"}, {"measurement": "pIC50", "setting": "recombinant RSV complex", "value": "> 6.00"}]}]}
